System: CHIKV nsP1 GTP binding site
Experiment: FP competition assay, displacement of GTP-Bodipy by GTP and RNA cap analogs (apparent Ki / EC50)
Settings: Ki relative to GTP

Row | Compound | Fold Change
1 | O=c1ccn([C@@H]2O[C@H](COP(=O)(O)OP(=O)(O)OP(=O)(O)O)[C@@H](O)[C@H]2O)c(=O)[nH]1 [UTP] | 8.17
2 | Nc1nc2c(ncn2[C@@H]2O[C@H](COP(=O)(O)OP(=O)(O)OP(=O)(O)OC[C@H]3O[C@@H](n4cnc5c(N)ncnc54)[C@H](O)[C@@H]3O)[C@@H](O)[C@H]2O)c(=O)[nH]1 [GpppA] | 3.46
3 | Cn1c[n+]([C@@H]2O[C@H](COP(=O)(O)O)[C@@H](O)[C@H]2O)c2nc(N)[nH]c(=O)c21 [me^7-GMP] | 40.11
4 | Nc1ccn([C@@H]2O[C@H](COP(=O)(O)OP(=O)(O)OP(=O)(O)O)[C@@H](O)[C@H]2O)c(=O)n1 [CTP] | 12.71
5 | O=c1[nH]c(=O)c2ncn([C@@H]3O[C@H](COP(=O)(O)OP(=O)(O)OP(=O)(O)O)[C@@H](O)[C@H]3O)c2[nH]1 [XTP] | 0.74
6 | Nc1nc2c(ncn2[C@@H]2O[C@H](COP(=O)(O)O)[C@@H](O)[C@H]2O)c(=O)[nH]1 [GMP] | 243.59
7 | Nc1nc2c(ncn2[C@H]2C[C@H](O)[C@@H](COP(=O)(O)OP(=O)(O)OP(=O)(O)O)O2)c(=O)[nH]1 [dGTP] | 7.71
8 | C[n+]1cn([C@@H]2O[C@H](COP(=O)([O-])OP(=O)(O)OP(=O)(O)OC[C@H]3O[C@@H](n4cnc5c(N)ncnc54)[C@H](O)[C@@H]3O)[C@@H](O)[C@H]2O)c2nc(N)[nH]c(=O)c21 [me^7-GpppA] | 12.82
9 | Cn1c[n+]([C@@H]2O[C@H](COP(=O)([O-])OP(=O)(O)OP(=O)(O)O)[C@@H](O)[C@H]2O)c2nc(N)[nH]c(=O)c21 [me^7-GTP] | 2.84
10 | O=c1[nH]cnc2c1ncn2[C@@H]1O[C@H](COP(=O)(O)OP(=O)(O)OP(=O)(O)O)[C@@H](O)[C@H]1O [ITP] | 3.50
11 | Nc1nc2c(ncn2[C@@H]2O[C@H](COP(=O)(O)OP(=O)(O)OP(=O)(O)O)[C@@H](O)[C@H]2O)c(=O)[nH]1 [GTP] | 1
12 | Nc1nc2c(ncn2[C@@H]2O[C@H](COP(=O)(O)OP(=O)(O)O)[C@@H](O)[C@H]2O)c(=O)[nH]1 [GDP] | 8.96
13 | Nc1ncnc2c1ncn2[C@@H]1O[C@H](COP(=O)(O)OP(=O)(O)OP(=O)(O)O)[C@@H](O)[C@H]1O [ATP] | 6.12
14 | Nc1nc2c(ncn2[C@H]2CC[C@@H](COP(=O)(O)OP(=O)(O)OP(=O)(O)O)O2)c(=O)[nH]1 [ddGTP] | 0.78

Reference: article PMC4948833, “A Sensitive and Robust High-Throughput Screening Assay for Inhibitors of the Chikungunya Virus nsP1 Capping Enzyme” (PLoS ONE, 2016)
